Measured values from several laboratories, pooled; numbers as filed in NIAID ChemDB.

Shared fields: growth or infection tests; species: Hepatitis C virus; endpoint: EC50

ECn is the concentration giving n% inhibition of infection, replication or growth.

compound	setting	strain or isolate	method	cells	result
Fc1cccc(Nc2ncnc3c2cnn3-c2ccc(Cl)cc2)c1			replicon	HUH 9B	1–10 µM
C=C[C@H]1C[C@@]1(NC(=O)[C@@H]1C[C@@H](Oc2cc(-c3ccccc3)nc3cc(OC)ccc23)CN1C(=O)[C@@H](NC(=O)O[C@@H]1CCOC1)C(C)(C)C)C(=O)NS(=O)(=O)C1(Cc2ccccc2)CC1		1b	replicon	Huh7	0.05–0.5 µM
CCOc1ccc(Nc2ncnc3c2cnn3-c2ccccc2Cl)cc1			replicon	HUH 9B	>10 µM
O=C(Nc1cccc(-c2cc(-c3c(F)cccc3Cl)no2)c1)C(Cl)Cl			replicon		≤10 µM
C=CC1C[C@@]1(NC(=O)[C@@H]1C[C@@H](Oc2cc(-c3ccccc3)nc3cc(OC)ccc23)CN1C(=O)[C@@H](NC(=O)Oc1ccccc1)C(C)(C)C)C(=O)NS(=O)(=O)C1(Cc2ccccc2)CC1		1b	replicon	Huh7	0.5–5 µM
COc1cc(C(=O)N2[C@@H](c3nccs3)[C@@H](c3cnccn3)C[C@@]2(CCS(C)(=O)=O)C(=O)O)ccc1C(C)(C)C		genotype 1b	replicon	Huh7	>10 µM
Cc1cc(-c2nnc(N[C@@H]3CCC[C@H](O)C3)o2)nc2c(C(C)(C)C)cc(OCC(F)(F)F)cc12		1b H94N	luciferase		0.0055 µM
COC(=O)c1ccc(N2CCN(S(=O)(=O)c3ccc(OC(F)(F)F)cc3)C(C(=O)NCc3ccc(OC(F)(F)F)cc3)C2)nn1		1a	replicon		1.6 µM
CNC(=O)c1c(-c2ccc(F)cc2)oc2cc(N(C)S(=O)(=O)CC3CC3)c(OC(C)C)cc12			replicon	Huh7	<1 µM
C=C[C@H]1C[C@@]1(NC(=O)[C@@H]1C[C@@H](Oc2cc(-c3ccccc3)nc3cc(OC)ccc23)CN1C(=O)[C@@H](NC(=O)OC(C)(C)C)C(C)(C)C)C(=O)NS(=O)(=O)C1(CCC)CC1		1b	replicon	Huh7	<0.05 µM
CNC(=O)c1c(-c2ccc(F)cc2)oc2cc(-c3c(C4CC4)noc3COC)c(OC)cc12			replicon	Huh7	<1 µM
CCc1ccc(S(=O)(=O)N2CCN(c3cc(OC)cc(OC)c3)CC2C(=O)N(Cc2ccccc2Cl)Cc2ccccc2Cl)cc1		1b	replicon		37 µM
Cc1ccc(-n2ncc3c(NC(=O)Nc4cccc(Cl)c4Cl)ncnc32)c(C)c1			replicon	HUH 9B	1–10 µM
CNC(=O)c1c(-c2ccc(F)cc2)oc2cc(N(C)S(C)(=O)=O)c(OCc3ccccc3OC(F)F)cc12			replicon	Huh7	<1 µM
CC(C)c1cccc(C(C)C)c1-c1cc(-c2cccc(NC(=O)C(Cl)Cl)c2)on1			replicon		≤10 µM
COc1c(C(C)(C)C)cc(-c2ccc[nH]c2=O)c2ncc(-c3ccc(NS(C)(=O)=O)cc3)cc12	40% human serum	GT 1a-H77	replicon	Huh7	0.016 µM
Cc1ccc(-n2ncc3c(NCCc4ccc(Cl)cc4)ncnc32)c(C)c1			replicon	HUH 9B	<1 µM
O=C(Nc1cccc(-c2cc(-c3c(F)cccc3S(=O)(=O)N3CCOCC3)no2)c1)C(Cl)Cl			replicon		≤10 µM
C=C[C@H]1C[C@@]1(NC(=O)[C@@H]1C[C@@H](Oc2cc(-c3ccccc3)nc3cc(OC)ccc23)CN1C(=O)[C@@H](NC(=O)OC(C)(C)C)C(C)(C)C)C(=O)NS(=O)(=O)C1(Cc2ccccn2)CC1		1b	replicon	Huh7	<0.05 µM
Cc1ccc(-n2ncc3c(NC(=O)Cc4ccccc4Br)ncnc32)c(C)c1			replicon	HUH 9B	1–10 µM
CNC(=O)c1c(-c2ccc(F)cc2)oc2cc(-c3ncon3)c(OC(C)C)cc12			replicon	Huh7	<1 µM
COc1ccc2c(O[C@@H]3C[C@@H](C(=O)NC4(C(=O)NS(=O)(=O)C5(C6=CCCCC6)CC5)CC4)N(C(=O)[C@@H](NC(=O)OC(C)(C)C)C(C)(C)C)C3)cc(-c3ccccc3)nc2c1		1b	replicon	Huh7	0.5–5 µM
COc1cc(C(=O)N2[C@@H](c3nccs3)[C@@H](c3cnccn3)C[C@@]2(Cn2cccn2)C(=O)O)ccc1C(C)(C)C		Genotype 1A	replicon	Huh7	<10 µM
Fc1ccccc1-c1nc2cc[n+](Cc3ccc(-c4ccc(C(F)(F)F)cc4C(F)(F)F)nn3)cc2[nH]1			luciferase	Con-1	0.0159 µM
CNC(=O)c1c(-c2ccccc2F)oc2ccc(OC)cc12			replicon	Huh7	<10 µM
CC(C)CC[C@@]1(C)C(=O)C(C2=NS(=O)(=O)c3cc(NS(C)(=O)=O)ccc3N2)=C(O)c2ccccc21		2a	luciferase	Huh7	12.6 µM
CC(C)c1cccc(Cl)c1-c1cc(-c2cccc(NC(=O)C(Cl)Cl)c2)on1			replicon		≤10 µM
COc1cc(C(=O)N2[C@@H](c3ncc(C)s3)[C@@H](c3cnccn3)C[C@@]2(Cc2ccsn2)C(=O)O)ccc1C(C)(C)C		genotype 1b	replicon	Huh7	<0.1 µM
CNC(=O)c1c(-c2ccc(F)cc2)oc2cc(N(Cc3ccc(B(O)O)c(F)c3)S(C)(=O)=O)c(C3CC3)cc12		Con1 genotype 1b	luciferase	Huh7.5	0.0016 µM
Cc1ccc(-n2ncc3c(Nc4cccc(Br)c4)ncnc32)c(C)c1			replicon	HUH 9B	1–10 µM
Cc1cc(-c2nnc(NC3CC(O)(C(F)F)C3)o2)nc2c(C(C)(C)C)cc(NCC(F)(F)F)cc12		2a - JFH	luciferase	Huh7	0.025 µM
C=CC1CC1(NC(=O)[C@@H]1C[C@@H](Oc2cc(-c3ccccc3)nc3cc(OC)ccc23)CN1C(=O)[C@@H](NC(=O)OC(C)(C)C)C(C)(C)C)C(=O)NS(=O)(=O)C1(C(=O)NCCC)CC1		1b	replicon	Huh7	<0.05 µM
CNC(=O)c1c(-c2ccc(F)cc2)oc2cc(-c3cccnc3)c(OC(C)C)cc12			replicon	Huh7	<10 µM
COc1cc(C(=O)N2[C@@H](c3nccs3)[C@@H](c3cnccn3)C[C@@]2(Cc2ccccc2)C(=O)O)ccc1C(C)(C)C		Genotype 1A	replicon	Huh7	10–100 µM
O=C(Nc1cccc(-c2cc(-c3ccccc3-c3ccccc3)no2)c1)C(Cl)Cl			replicon		≤10 µM
COc1nc(N)nc2c1ncn2[C@@H]1O[C@H](COP(=O)(N[C@@H](C)C(=O)OCC(C)(C)C)Oc2cccc3ccccc23)[C@@H](O)[C@@]1(C)O	24 h	2a	luciferase	Huh7	0.0009 µM
COc1cc(C(=O)N2[C@@H](c3nccs3)[C@@H](c3cnccn3)C[C@@]2(Cc2cscn2)C(=O)O)ccc1C(C)(C)C		Genotype 1A	replicon	Huh7	<10 µM
CNC(=O)c1c(-c2ccc(F)cc2)oc2cc(-c3cccnc3)c(OC)cc12			replicon	Huh7	<1 µM
C=CC1CC1(NC(=O)[C@@H]1C[C@@H](Oc2cc(-c3ccccc3)nc3cc(OC)ccc23)CN1C(=O)[C@@H](NC(=O)OC(C)(C)C)C(C)(C)C)C(=O)NS(=O)(=O)C1(Br)CC1		1b	replicon	Huh7	<0.05 µM
Cc1ccc(F)c(-c2cc(-c3cccc(NC(=O)C(Cl)Cl)c3)on2)c1F			replicon		>10 µM
COc1ccc2c(O[C@@H]3C[C@@H](C(=O)NC4(C(=O)NS(=O)(=O)C5(Cc6ccccc6)CC5)CC4)N(C(=O)[C@@H](NC(=O)OC(C)(C)C)C(C)(C)C)C3)cc(-c3ccccc3)nc2c1		1b	replicon	Huh7	5–50 µM
O=C1N[C@H]2C(=O)N[C@H]3C(=O)N[C@H](C(=O)N[C@H](C(=O)O)c4cc(O)cc(O)c4-c4cc3ccc4O)[C@H](O)c3ccc(c(Cl)c3)Oc3cc2cc(c3O)Oc2ccc(cc2Cl)C[C@H]2NC(=O)[C@H](NOC(=O)C34CC5CC(CC(C5)C3)C4)c3ccc(O)c(c3)Oc3cc(O)cc(c3)[C@@H]1NC2=O		HCVcc	luciferase		5.7 µM

a–b is a range or a potency band. Conditions beyond the fields shown may differ between rows. Blank or dashed fields: not listed here.